Reference: ChEMBL document CHEMBL4433208, “N-Nitrosulfonamides as Carbonic Anhydrase Inhibitors: A Promising Chemotype for Targeting Chagas Disease and Leishmaniasis” (ACS Med Chem Lett, 2019)

How the values were obtained:
[1] = Inhibition of Leishmania donovani chagasi carbonic anhydrase preincubated for 15 mins by phenol red dye based stopped flow CO2 hydration assay
[2] = Inhibition of Malassezia globosa carbonic anhydrase preincubated for 15 mins by phenol red dye based stopped flow CO2 hydration assay
[3] = Inhibition of Trypanosoma cruzi carbonic anhydrase preincubated for 15 mins by phenol red dye based stopped flow CO2 hydration assay
[4] = Inhibition of Cryptococcus neoformans carbonic anhydrase preincubated for 15 mins by phenol red dye based stopped flow CO2 hydration assay

Nc1cc(S(=O)(=O)[N-][N+](=O)[O-])cc([N+](=O)[O-])c1O
Ki [1]: 1000 nM | Ki [2]: 570 nM | Ki [3]: 850 nM | Ki [4]: 350 nM
